# Taken from: PubChem BioAssay AID504761 (Drosophila RNAi Screening Center, 2011)
# Screen: 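Fly genes whose silencing reduces dengue virus type 2 infection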 (primary screen)
# System: D.Mel-2 cells from Drosophila
# Reagents: long dsRNA against Drosophila genes
# Conditions: infection with dengue virus type 2; dose and infection time not stated
# Measurement: 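Cells stained for dengue envelope protein and imaged; percent of infected cells per well on duplicate plates, ranked by infection, with stained nuclei counted for cell number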
# Direction: infection score: higher = more virus-infected cells; cell count: higher = more cells in the well
# Active means: 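Low infection ranks in the two replicates (chance level up to 0.065) followed by a retest with a 1.5-fold or larger significant decrease, p below 0.05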
# Meaning of the calls: active = confirmed: knock-down lowers infection; inactive = not picked or not confirmed
# The screen tested about 22,000 reagents; below is a random part of those that have a named target and a result. Of all reagents, 116 (0.52%) were called active. 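Calls depend on retest data that are not deposited; infection was ranked per plate without normalising between plates; the unit of the infection score is not given.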 The raw values are shown without normalisation. Unmarked entries are inactive. Names joined by + are all predicted targets of the reagent. Not given: the amount of reagent, the time to read-out.
"infection score, replicate 1","infection score, replicate 2","cell count, replicate 1","cell count, replicate 2",target gene,DRSC id
5.5,6.66,6688,6366,Pgm1 (Phosphoglucose mutase 1),DRSC10490
0.45,8.34,446,6212,Pgm1 (Phosphoglucose mutase 1),DRSC28517
24,28.9,4555,4793,pont (pontin),DRSC17029
15.5,12.5,6688,6623,CG17470,DRSC02621
3.18,3.07,6157,6215,CG42749,DRSC18091
18.4,15.6,5702,3857,CG42749,DRSC18092
23.6,15.8,4773,3817,CG42749,DRSC29102
3.76,1.54,5873,5728,CG34370,DRSC03913
1.45,4.88,6841,6933,CG34370,DRSC04142
10.5,7.71,6769,6604,CG34370,DRSC04143
2.94,8.53,6797,6857,CG34370,DRSC04144
8.94,2.97,6099,6119,CG34370,DRSC26263
24.6,18.5,6087,6500,side-VII (sidestep VII),DRSC14578
19.1,6.71,5814,6706,14-3-3zeta,DRSC05028
4.68,8.35,7005,7113,14-3-3zeta,DRSC27525
10.1,2.12,6113,6380,Sqor (Sulfide quinone oxidoreductase),DRSC08453
5.74,4.42,6339,6563,Sqor (Sulfide quinone oxidoreductase),DRSC27056
3.03,8.9,6530,6526,Ufl1 (UFM1 specific ligase 1),DRSC12527
18,5.98,6536,6354,bsh (brain-specific homeobox),DRSC03498
4.35,5.41,5361,5473,bsh (brain-specific homeobox),DRSC25413
2.73,1.4,6329,6407,CG11906,DRSC06096
16.5,17.1,5184,2334,rib (ribbon),DRSC07021
3.91,2.15,6285,6943,Ste:CG33238 + Ste:CG33241 + Ste:CG33244 + 10 more,DRSC26515
5.1,12.2,5926,6081,Wnk (Wnk kinase),DRSC23372
4.86,15.7,6343,3790,CG42383,DRSC21733
20.2,3.19,5621,6525,Rab9D + Rab9E + Rab9Db + 1 more,DRSC27303
2.15,7.71,4979,4799,Syx5 (Syntaxin 5),DRSC03432
8.23,9.35,6594,6409,nxf4 (nuclear export factor 4),DRSC12548
28.6,7.16,5736,6646,nrv3 (nervana 3),DRSC03097

An excerpt from above, showing only “infection score, replicate 1”:
rib (ribbon) [DRSC07021]	16.5
Ste:CG33238 + Ste:CG33241 + Ste:CG33244 + 10 more [DRSC26515]	3.91
Wnk (Wnk kinase) [DRSC23372]	5.1
CG42383 [DRSC21733]	4.86
Rab9D + Rab9E + Rab9Db + 1 more [DRSC27303]	20.2
Syx5 (Syntaxin 5) [DRSC03432]	2.15
nxf4 (nuclear export factor 4) [DRSC12548]	8.23

Additional reagents follow:
"infection score, replicate 1","infection score, replicate 2","cell count, replicate 1","cell count, replicate 2",target gene,DRSC id
7.49,14.4,5607,6018,ACOX1 (acyl-CoA oxidase 1),DRSC05941
1.53,9.07,6470,2712,ACOX1 (acyl-CoA oxidase 1),DRSC24604
2.78,0.64,5728,5432,pita,DRSC04006
1.27,7.82,6319,5880,pita,DRSC04435
9.71,6.19,6332,5962,janB (janus B),DRSC16973
,7.96,325,5274,ms(3)K81 (male sterile (3) K81),DRSC14746
5.4,7.12,6533,6246,CG8149,DRSC16391
1.57,3.27,6682,6853,CG13127,DRSC02223
6.56,7.78,6338,6378,CG13127,DRSC29726
3.85,11.1,6542,6640,CG10340,DRSC14232
7.34,5.34,6211,6335,Rs1,DRSC05945
5.25,4.53,6171,5742,Rs1,DRSC26592
9.84,14.7,6340,6802,CG17122,DRSC10245
21.2,,4300,387,CG17122,DRSC28648
13.4,3.98,6481,6180,ecd (ecdysoneless),DRSC08574
3.92,2.45,6472,6205,Ptp10D (Protein tyrosine phosphatase 10D),DRSC20272
20.2,2.08,5642,6775,bam (bag of marbles),DRSC16907
1.64,17.4,610,4240,CG32795,DRSC18609
8.55,6.99,6631,2173,CG32795,DRSC18610
15.7,2.55,4342,6830,Su(H) (Suppressor of Hairless),DRSC03445
9.82,4.02,5660,6370,Alp4 (Alkaline phosphatase 4),DRSC14116
5.12,8.2,6504,6588,Mad,DRSC00759
0.66,5.78,5485,6039,Drsl1 (Drosomycin-like 1),DRSC22490
9.39,7.6,6068,6423,Ccm3 (Cerebral cavernous malformation 3),DRSC15711
12.9,4.44,6166,6348,CanB2 (Calcineurin B2),DRSC07355
4.75,3.81,6925,6513,CanB2 (Calcineurin B2),DRSC27440
2.11,2.58,6434,6406,Grip163,DRSC10538
2.37,7.22,6086,5800,Grip163,DRSC26469
,,528,605,Mco1 (Multicopper oxidase 1),DRSC02720
